Compound potency records, mixed from different reports. Data source: NIAID ChemDB in PubChem.

Common to all: target-level tests; organism: HIV-1; target: Reverse transcriptase

Two numbers with a dash give a range or band.

compound,changes,strain,method,measure,result
CCOC(=O)c1cc(-c2ccc3c(n2)N(CC)c2ncccc2C(=O)N3C)c[nH]1,-,WT,nucleotide incorporation / radiometric,IC50,<1 µM
CCN1c2nc(Cl)ccc2NC(=O)c2cc(CCc3ccncc3)cnc21,RT-Y181C,-,nucleotide incorporation / radiometric,IC50,<1 µM
C=CCOc1ccc2c(c1OC(C)=O)C(=O)c1ccccc1C2=O,Y181C,-,-,IC50,>100 µM
CCN1c2ncc(CCOc3ccc(C4CC4C(=O)O)c4ccccc34)cc2C(=O)N(C)c2ccc(F)nc21,RT-Y188L,-,nucleotide incorporation / radiometric,IC50,0.1–1 µM
Cc1nnc2c3c(c(N4CCc5ccccc5C4)nn12)C1CCC3CC1,-,IIIB,RT activity / fluorescence,IC50,6.59 µM
COc1cccc(S(=O)(=O)n2c(=O)[nH]c3ccc(Cl)cc32)c1,Wild type,-,nucleotide incorporation,IC50,0.05 µM
COc1c(C(=O)c2c[nH]c(-c3nc4ccccc4[nH]3)c2)c(O)c(OC)c2occc12,-,-,scintillation proximity / radiometric,IC50,34.12 µM
CCN1c2ncc(CCOc3ccc4cc(CC(=O)NN)ccc4c3)cc2C(=O)N(C)c2cccnc21,RT-Y188L,-,nucleotide incorporation / radiometric,IC50,0.1–1 µM
CC(=O)O[C@H]1CC[C@@]2(C)[C@@H](CC[C@@]3(C)[C@H]2CC=C2[C@@H]([C@H](C)CC/C=C(\C)C(=O)O)CC[C@@]23C)C1(C)C,-,-,nucleotide incorporation / radiometric,IC50,15.5 µg/mL
Cc1nnc2ccc(N3CCc4ccccc4C3)nn12,-,KER2008,RT activity / fluorescence,IC50,9.82 µM
CCN1c2ncccc2C(=O)N(C)c2ccc(-c3cc4cc(OC)ccc4[nH]3)nc21,RT-Y181C,-,nucleotide incorporation / radiometric,IC50,>1 µM
CN(C)c1ccc(-n2nnnc2SCC(=O)Nc2ccccc2[N+](=O)[O-])c2ccccc12,-,-,nucleotide incorporation / radiometric,IC50,<2 µM
O=C(Oc1ccc2c(c1OC(=O)c1ccccc1)C(=O)c1ccccc1C2=O)c1ccccc1,K103N,-,-,IC50,28 µM
NS(=O)(=O)c1ccc(NC(=O)CSc2nnnn2-c2cc(Cl)ccc2Cl)c(Cl)c1,-,-,nucleotide incorporation / radiometric,IC50,<2 µM
CCN1c2ncccc2C(=O)N(C)c2ccc(-c3cnn(C(C)=O)c3)nc21,RT-Y181C,-,nucleotide incorporation / radiometric,IC50,<1 µM
O=C(CSc1nnnn1-c1ccccc1-c1ccccc1)Nc1ccccc1Cl,-,-,nucleotide incorporation / radiometric,IC50,<2 µM
CCN1c2ncccc2C(=O)N(C)c2ccc(-c3cn[nH]c3)nc21,-,WT,nucleotide incorporation / radiometric,IC50,<1 µM
Cc1cn([C@@]23CC2[C@H](COP(=O)(O)OP(=O)(O)OP(=O)(O)O)[C@@H](N=[N+]=[N-])C3)c(=O)[nH]c1=O,-,BH10,-,IC50,>1 µM
Cc1cc(C)c(-n2nnnc2OCC(=O)Nc2ccccc2[N+](=O)[O-])c(C)c1,-,-,nucleotide incorporation / radiometric,IC50,<2 µM
N#Cc1ccc2c(Oc3ccccc3OCCn3ccc(=O)[nH]c3=O)cc(F)cc2c1,-,-,RT activity / fluorescence,IC50,0.0048 µM
CCN1c2ncc(CCc3ccncc3)cc2C(=O)N(C)c2ccc(CCc3ccncc3)nc21,RT-Y181C,-,nucleotide incorporation / radiometric,IC50,>1 µM
NC(=O)c1[nH]c2ccc(Br)cc2c1S(=O)(=O)N1CCCC1,Y181C,BH10,RT activity / radiometric,IC50,59 µM
CCN1c2ncc(CCOc3ccc(CC(C)C(=O)O)c4ccccc34)cc2C(=O)N(C)c2ccc(C)nc21,-,WT,nucleotide incorporation / radiometric,IC50,<0.1 µM
CCN1c2ncccc2C(=O)N(C)c2ccc(-c3c[nH]c4ccccc34)nc21,-,WT,nucleotide incorporation / radiometric,IC50,<1 µM
Cc1cc(C)c(-n2nnnc2SCC(=O)Nc2ccc(Br)cc2F)c(C)c1,-,-,nucleotide incorporation / radiometric,IC50,<2 µM
CCN1c2ncc(CCOc3ccc(CC(=O)O)c4ccccc34)cc2C(=O)Nc2c(C)ccnc21,RT-V106A,-,nucleotide incorporation / radiometric,IC50,>1 µM
Nc1cc2c(cc1F)CN(c1nn3c(C4CC4)nnc3c3ccccc13)CC2,-,KER2008,RT activity / fluorescence,IC90,2.25 µM
CCN1c2ncc(CCOc3ccc(CC(C)C(=O)O)c4ccccc34)cc2C(=O)N(C)c2ccc(F)nc21,-,WT,nucleotide incorporation / radiometric,IC50,<0.1 µM
CC(=O)Oc1c(OCC(=O)c2ccc(Br)cc2)ccc2c1C(=O)c1ccccc1C2=O,Y181C,-,-,IC50,>100 µM
Nc1cc2c(c(N3CCOCC3)c1)CCN(c1nn3c(C4CC4)nnc3c3ccccc13)C2,-,98US_MSC5016,RT activity / fluorescence,IC50,18.2 µM
CCN1c2ncccc2C(=O)N(C)c2ccc(-c3c[nH]c(C(N)=O)c3)nc21,RT-Y188L,-,nucleotide incorporation / radiometric,IC50,>1 µM
N#Cc1cccc(-n2nnnc2SCC(=O)Nc2ccccc2[N+](=O)[O-])c1,-,-,nucleotide incorporation / radiometric,IC50,<2 µM
C/C(=C\CC[C@@H](C)[C@H]1CC[C@@]2(C)C1=CC[C@H]1[C@@]3(C)CCC(=O)C(C)(C)[C@@H]3CC[C@@]12C)C(=O)O,-,-,nucleotide incorporation / radiometric,IC50,12.2 µg/mL
CC(=O)Oc1c(OCC(=O)c2ccccc2)ccc2c1C(=O)c1ccccc1C2=O,-,-,-,IC50,60 µM
NC(=O)c1ccccc1NC(=O)CSc1nnnn1-c1cccc2ccccc12,-,-,nucleotide incorporation / radiometric,IC50,<2 µM
O=C(O)c1cn([C@@H]2O[C@H](CO)[C@@H](O)[C@H]2O)c2cc(Cl)ccc2c1=O,-,-,-,IC50,>100 µM
CCn1c(C)c(C(=O)OC)c(C(=O)OC)c1Cc1ccccc1,-,IIIB,-,IC50,1.1 µM
CCN1c2ncc(CCOc3ccc(C(=O)O)c4c3CCCC4)cc2C(=O)N(C)c2ccc(F)nc21,RT-K103N Y181C,-,nucleotide incorporation / radiometric,IC50,0.1–1 µM
CN1C(=O)c2cccnc2N(C)c2nc(-c3ccc[nH]3)ccc21,-,WT,nucleotide incorporation / radiometric,IC50,<1 µM
O=C(O)c1cn([C@@H]2O[C@H](CO)[C@@H](O)[C@H]2O)c2ccc(Cl)cc2c1=O,-,-,-,IC50,>100 µM
CCN1c2ncc(CCc3ccncc3)cc2C(=O)N(C)c2ccc(F)nc21,-,WT,nucleotide incorporation / radiometric,IC50,<1 µM
Cc1cc(C)c(-n2nnnc2SCC(=O)Nc2ccccc2N)c(C)c1,-,-,nucleotide incorporation / radiometric,IC50,<2 µM

The last 4 rows once more:

compound	changes	strain	method	measure	result
CN1C(=O)c2cccnc2N(C)c2nc(-c3ccc[nH]3)ccc21	-	WT	nucleotide incorporation / radiometric	IC50	<1 µM
O=C(O)c1cn([C@@H]2O[C@H](CO)[C@@H](O)[C@H]2O)c2ccc(Cl)cc2c1=O	-	-	-	IC50	>100 µM
CCN1c2ncc(CCc3ccncc3)cc2C(=O)N(C)c2ccc(F)nc21	-	WT	nucleotide incorporation / radiometric	IC50	<1 µM
Cc1cc(C)c(-n2nnnc2SCC(=O)Nc2ccccc2N)c(C)c1	-	-	nucleotide incorporation / radiometric	IC50	<2 µM

ICn is the concentration giving n% inhibition. An empty or dashed field is not shown. Conditions beyond the fields shown may differ between rows.